# From article PMC11271582, “Pan-serotype dengue virus inhibitor JNJ-A07 targets NS4A-2K-NS4B interaction with NS2B/NS3 and blocks replication organelle formation” (Nature Communications, 2024)
# Target: NS4A-2K-NS4B-HA mutant CS P1’Ile (NS4A-2K cleavage site blocked) (DENV (strain not stated for this construct))
# Assay: co-IP
substance,measurement,value
"DENV NS2B/NS3 protease/helicase complex (active protease), stably expressed (from UniProt P29990)",EC50 of the small molecule JNJ-A07 for reducing this co-precipitation,3.3 nM
